Reference: patent US6071902A, “Method for treating excessive aggression” (Eli Lilly and Company, priority 1997, dated 2000)

Tested on: 5-HT-2 receptor
Assay: pharmacological studies, 5-HT-2 receptor activity

## Cc1cc2c(s1)Nc1ccccc1N=C2N1CCN(C)CC1 [olanzapine, 2-methyl-4-(4-methyl-1-piperazinyl)-10H-thieno[2,3-b][1,5]benzodiazepine]
  activity at the 5-HT-2 receptor: active
